Anti-infective test results gathered from many reports (values: NIAID ChemDB through PubChem).

All rows: whole-cell or culture tests; organism: Mycobacterium tuberculosis

ECn is the concentration giving n% inhibition of infection, replication or growth. Percent inhibition refers to the dose given; in toxicity tests it is the harm to the cells. Blank or dashed fields: not listed here. A number after MIC or MFC names an inhibition level or a share of isolates. MIC bound: limit read from a one-dose screen. Neighbouring rows are from separate reports.

compound | strain | read by | setting | read-out | tested at | value
COC1(OC)c2no[n+]([O-])c2C(OC)(OC)c2c1no[n+]2[O-] | H37Rv | BACTEC |  | inhibition | 12.5 µg/mL | 26%
COc1cccc(OC)c1Nc1nc(-c2ccc(F)cc2)cs1 | H37Rv | agar |  | MIC |  | >12.5 µg/mL
CC(C)N=c1cc2n(-c3ccc(Cl)cc3)c3ccccc3nc-2cc1Nc1ccc(Cl)cc1 | H37Rv-MA | turbidity / fluorescence |  | MIC90 |  | 0.46 µM
NNC(=O)c1cc(-c2ccc(-c3cccs3)s2)nc2ccccc12 | H37Rv | fluorescence |  | MIC |  | >6.25 µg/mL
C=CCS/C(N)=N/NC(=O)c1ccc(C)cc1 | H37Rv |  |  | MIC |  | >100 µg/mL
O=c1oc2ccccc2cc1-c1cs/c(=N/N=C/c2ccc(Cl)c(Cl)c2)n1C1CCCCC1 | H37Rv |  |  | MIC |  | >6.25 µg/mL
O=C(/C=C/c1ccccc1)c1ccc(F)cc1 | H37Rv | resazurin | 14 d | MIC |  | 32 µg/mL
Cc1ccc(/C=N/N=C(\N)c2ccncc2)cc1 | 1481 |  |  | MIC |  | 16 µg/mL
O=C(/C=C/c1ccccc1Cl)c1ccc(F)cc1 | H37Rv | MTT | 14 d | MIC |  | 32 µg/mL
O=C(/C=C/c1ccc(I)cc1)c1ccccc1O | H37Rv |  |  | MIC |  | >12.5 µg/mL
COc1ccc(C(=O)/C=C/c2ccccc2Cl)cc1 | H37Rv | resazurin | 7 d | MIC |  | 32 µg/mL
COc1ccccc1/C=N/N=C(\N)c1ccncc1 | 1054 |  |  | MIC |  | 32 µg/mL
O=C(Nc1nc(-c2ccc(Br)s2)cs1)c1cc(-c2ccc(-c3ccc([N+](=O)[O-])s3)s2)nc2ccccc12 | H37Rv | fluorescence |  | MIC |  | 6.25 µg/mL
O=c1oc2ccccc2cc1-c1cs/c(=N/N=C/c2ccc(Br)cc2)n1C1CCCCC1 | H37Rv |  |  | MIC |  | >6.25 µg/mL
O=C(/C=C/c1ccccc1)c1ccc(O)cc1 | H37Rv | MTT |  | MIC |  | 32 µg/mL
NC[C@@H]1O[C@H](O[C@H]2[C@@H](O)[C@H](O[C@@H]3[C@@H](O)[C@H](N)C[C@H](N)[C@H]3O[C@H]3O[C@H](CN)[C@@H](O)[C@H](O)[C@H]3N)O[C@@H]2CO)[C@H](N)[C@@H](O)[C@@H]1O | H37Rv |  |  | MIC |  | 8 µg/mL
CC(=O)Nn1nnc2ccccc2c1=O | H37Rv | BACTEC |  | MIC bound |  | >12.5 µg/mL
COc1cc(OC)c2c(=O)cc(-c3cc(OC)c(OC)c(OC)c3)oc2c1 | H37Rv |  |  | MIC |  | >12.5 µg/mL
CC(=O)Nc1c2sscc-2n(C)c1=O | TAC-R |  |  | MIC |  | 2 µg/mL
CCOC(=O)c1ccc(NC(=O)C(CC(=O)Nc2ccccc2)C(C)=O)cc1 | H37Rv |  |  | inhibition | 30 µg/mL | 0%
N/C(=N\N=C\c1cccc(F)c1)c1ccncc1 | 1342 |  |  | MIC |  | 64 µg/mL
CCOC(=O)c1ccc(NC(=O)C(CC(=O)Nc2cccc3ccccc23)C(C)=O)cc1 | H37Rv |  |  | inhibition | 30 µg/mL | 0%
O=C(N=Nc1c(O)[nH]c2ccccc12)c1ccc(-n2cc(-c3ccccc3)nn2)cc1O | H37Rv | resazurin |  | MIC |  | 12.5 µg/mL
O=C(/C=C/c1c(F)cccc1Cl)c1ccccc1 | H37Rv | MTT |  | MIC |  | 32 µg/mL
C=CCS/C(N)=N/NC(=O)c1ccc([N+](=O)[O-])cc1 | H37Rv |  |  | MIC |  | >100 µg/mL
COc1ccc(-c2csc(CN=Cc3cn(Cc4ccc(Cl)cc4Cl)c4ccccc34)n2)cc1OC | H37Rv | agar |  | MIC |  | >12.5 µg/mL
C=CCS/C(N)=N/NC(=O)c1ccccc1 | H37Rv |  |  | MIC |  | >100 µg/mL
c1ccc(CSc2nc3ccccc3o2)nc1 | My 331/88 |  |  | MIC |  | 62.5 µM
CC(NC(=O)C(=O)NN)c1ccccc1 | H37Rv | BACTEC |  | MIC |  | ≥12.5 µg/mL
COc1ccc(OC)c(C=NNC(=O)c2ccc(-n3cc(-c4ccccc4)nn3)cc2O)c1 | H37Rv | resazurin |  | MIC |  | 1.56 µg/mL
COc1ccccc1/C=N/N=c1\scc(-c2cc3cc(Br)ccc3oc2=O)n1C1CCCCC1 | H37Rv |  |  | inhibition | 6.25 µg/mL | 3%
O=C(NN=Cc1cccc(Br)c1)c1ccc(-n2cc(-c3ccccc3)nn2)cc1O | H37Rv | resazurin |  | MIC |  | 1.56 µg/mL
COc1ccc(-c2oc3cc(OC)cc(OC)c3c(=O)c2Br)cc1 | H37Rv |  |  | MIC |  | >12.5 µg/mL
NC(=S)NNC(=O)c1ccc(Cl)cc1Cl | H37Rv |  |  | MIC |  | >100 µg/mL
COc1ccc(OC)c(/C=N/N=C(\N)c2ccncc2)c1 | 1054 |  |  | MIC |  | 256 µg/mL
N#Cc1cc(SCc2ccncc2)ccn1 | My 331/88 |  |  | MIC |  | 1000 µM
COc1nc2ccc(Br)cc2cc1[C@@H](c1ccccc1)[C@@](O)(CCN(C)C)c1cccc2ccccc12 | H37Rv-LP | turbidity / fluorescence |  | MIC90 |  | 0.24 µM
O=C(Nc1nc(-c2ccccc2)cs1)c1cc(/C=C/c2ccc([N+](=O)[O-])s2)nc2ccccc12 | H37Rv | fluorescence |  | MIC |  | 3.125 µg/mL
NC(=S)NNC(=O)c1ccc(F)cc1 | H37Rv |  |  | MIC |  | >100 µg/mL
Cc1ccc(C(=O)/C=C/c2ccccc2)cc1 | H37Rv | MTT | 7 d | MIC |  | 32 µg/mL
Cc1ccc(/C=N/N=C(\N)c2ccncc2)c(C)c1 | 1342 |  |  | MIC |  | 8 µg/mL
O=C(O)c1ccc(O)c(C(=O)/C=C/c2cccc(I)c2)c1 | H37Rv |  |  | MIC |  | >12.5 µg/mL
C[C@@H]1CN(C(=O)CCOS(C)(=O)=O)[C@@H](C)CN1C(=O)CCOS(C)(=O)=O | H37Rv | BACTEC |  | inhibition | 12.5 µg/mL | 11%
c1ccc2oc(SCc3ccncc3)nc2c1 | My 331/88 |  |  | MIC |  | 250 µM
O=c1cc(-c2cccc(I)c2)oc2ccccc12 | H37Rv |  |  | inhibition | 12.5 µg/mL | 20%
CC(N=c1cc2n(-c3ccc(Cl)cc3)c3ccccc3nc-2cc1Nc1ccc(Cl)cc1)c1ccccc1 | RMP-R |  |  | MIC |  | 0.2 µg/mL
Cc1ccc(C(=O)N/N=C(\N)SCc2cccc(Cl)c2)cc1 | H37Rv |  |  | MIC |  | >100 µg/mL
Cc1ccc2nc(SCc3cccnc3)[nH]c2c1 | My 331/88 |  |  | MIC |  | 500 µM
CC[C@H](/C=C/C(C)[C@H]1CCC2C3CCC4=CC(=O)CC[C@]4(C)C3CC[C@@]21C)C(C)C | H37Rv |  |  | MIC |  | <2 µg/mL
OC(/C=C\c1ccccc1)(Cc1cc(-c2ccccc2)n[nH]1)c1ccccc1 | H37Rv | resazurin |  | MIC bound |  | >6.25 µg/mL
NCC[C@H](O)C(=O)N[C@@H]1C[C@H](N)[C@@H](O[C@H]2O[C@H](CN)[C@@H](O)[C@H](O)[C@H]2O)[C@H](O)[C@H]1O[C@H]1O[C@H](CO)[C@@H](O)[C@H](N)[C@H]1O | H37Rv |  |  | MIC |  | 1 µg/mL
COc1cccc(/C=N/N=C(\N)c2ccncc2)c1OC | H37Rv |  |  | MIC |  | 256 µg/mL
COc1cc2c(c(OC)c1OC)C(=O)/C(=C/c1ccccc1)O2 | H37Rv | BACTEC |  | MIC bound |  | ≤12.5 µg/mL
O=c1c(O)c(-c2ccccc2)oc2cc(Cl)ccc12 | H37Rv |  |  | inhibition | 12.5 µg/mL | 52%
O=C(/C=C/c1ccc(F)cc1)c1ccc(O)cc1 | H37Rv | MTT |  | MIC |  | 32 µg/mL
O=C(Nc1ccccc1)c1cc(-c2ccc([N+](=O)[O-])s2)nc2ccccc12 | H37Rv | fluorescence |  | MIC |  | >6.25 µg/mL
O=C(CC(=O)N1N=C(c2ccccc2)C(N=Nc2ccc(Cl)cc2)C1=O)Nc1ccccc1Cl | H37Rv | BACTEC |  | MIC |  | ≥12.8 µg/mL
CC[C@@H](CO)NCCN[C@@H](CC)CO | H37Rv |  |  | MIC |  | 1.25 µg/mL
c1ccc2c(CSc3nc4ccccc4s3)cccc2c1 | My 331/88 |  |  | MIC |  | 500 µM
COc1ccc(C(=O)/C=C/c2ccc(F)cc2)c(F)c1 | H37Rv | MTT | 21 d | MIC |  | 32 µg/mL
c1ccc2[nH]c(SCc3ccncc3)nc2c1 | My 331/88 |  |  | MIC |  | 500 µM
O=c1cc(-c2ccccc2)c2nc3cc(Cl)ccc3sc-2c1-c1ccccc1 | H37Rv | BACTEC |  | inhibition | 12.5 µg/mL | 77%
CN[C@@H]1[C@H](O[C@H]2[C@H](O[C@H]3[C@H](O)[C@@H](O)[C@H](N=C(N)N)[C@@H](O)[C@@H]3N=C(N)N)O[C@@H](C)[C@]2(O)C=O)O[C@@H](CO)[C@H](O)[C@H]1O | WH 51/02 |  |  | MIC |  | 0.625 µg/mL
O=C1c2ccccc2C(=CC=C2c3ccccc3Sc3ccccc32)c2ccccc21 | H37Rv | BACTEC |  | inhibition | 12.5 µg/mL | 39%
CCc1nc2ccc(C)cc2n1CCCCOc1ccccc1 | H37Rv-MA cydC::aph | turbidity / fluorescence |  | MIC90 |  | 0.14 µM
O=C(NCCCCCCNC(=O)c1ccccn1)c1ccccn1 | H37Rv | resazurin |  | MIC bound |  | >6.25 µg/mL
C/C(=C\CO)CCC[C@H](C)CCC[C@H](C)CCCC(C)C | H37Rv |  |  | MIC |  | 32 µg/mL
NC[C@H]1O[C@H](O[C@H]2[C@H](O)[C@@H](O[C@H]3O[C@H](CO)[C@@H](O)[C@H](N)[C@H]3O)[C@H](N)C[C@@H]2N)[C@H](N)C[C@@H]1O | H37Rv |  |  | MBC |  | >64 µg/mL
CC(=O)C(CC(=O)Nc1cccc(Cl)c1)C(=O)Nc1cccc2ccccc12 | H37Rv |  |  | inhibition | 30 µg/mL | 0%
COc1ccc(-c2cc(=O)c3cc(F)ccc3o2)cc1 | H37Rv |  |  | MIC |  | >12.5 µg/mL
C/C(=N/NC(=S)N1CCC(c2ccccc2)CC1)c1nccnc1C | RMP-R |  |  | MIC |  | 12.5 µg/mL
N/C(=N\N=C\c1ccc([N+](=O)[O-])cc1)c1ccncc1 | 1481 |  |  | MIC |  | >256 µg/mL
O=C(NNC(=O)c1cccc(C(=O)NNC(=O)c2ccc(Cl)c(Cl)c2)n1)c1ccc(Cl)c(Cl)c1 | H37Rv | BACTEC |  | inhibition | 12.5 µg/mL | 25%
COc1ccc(-c2cc(=O)c3ccccc3o2)cc1 | H37Rv |  |  | inhibition | 12.5 µg/mL | 26%
COc1ccc(OC)c(/C=N/N=c2/scc(-c3cc4cc(Br)ccc4oc3=O)n2C2CCCCC2)c1 | H37Rv |  |  | EC50 |  | >6.25 µg/mL
O=C(Nc1nc(-c2cccs2)cs1)c1cc(/C=C/c2ccc(-c3ccc([N+](=O)[O-])s3)s2)nc2ccccc12 | H37Rv | fluorescence |  | MIC |  | 6.25 µg/mL
N#Cc1cc(SCc2ccccn2)ccn1 | My 331/88 |  |  | MIC |  | 8 µM
Cc1ccc2[nH]c(=S)n(-c3ccc(Cl)cc3)c(=O)c2c1 | H37Rv | BACTEC |  | MIC bound |  | >12.5 µg/mL
O=c1cc(-c2ccccc2)oc2ccc(Cl)cc12 | H37Rv |  |  | MIC |  | >12.5 µg/mL
COC(=O)c1cc(Nc2ccc(O)c3c2C(=O)c2c([N+](=O)[O-])ccc(O)c2C3=O)cc(C(=O)OC)c1 | H37Rv | BACTEC |  | inhibition | 12.5 µg/mL | 0%
COc1cc(C(=O)NNC(N)=S)cc(OC)c1OC | H37Rv |  |  | MIC |  | >100 µg/mL
NC(=O)c1ccc[n+](CC(=O)c2ccc(F)cc2)c1.[Br-] | H37Rv | BACTEC |  | inhibition | 12.5 µg/mL | 12%
CCOC(=O)c1ccc(NC(=O)C(CC(=O)Nc2ccc(OC)cc2)C(C)=O)cc1 | H37Rv |  |  | inhibition | 5 µg/mL | 0%
COc1cc(O)c(Cc2ccccc2O)c(O)c1C(=O)CCc1ccccc1 | H37Rv | BACTEC |  | inhibition | 12.5 µg/mL | 56%
NC(=S)c1cc(SCc2ccncc2)ccn1 | My 331/88 |  |  | MIC |  | 16 µM
CCCCCCCC(CC(=O)O)OC(=O)CC(CCCCCCC)OC1O[C@@H](C)[C@H](O)[C@@H](O)[C@H]1O[C@@H]1O[C@@H](C)[C@H](O)[C@@H](O)[C@H]1O | H37Rv | BACTEC |  | inhibition | 12.5 µg/mL | 12%
CCc1nc2ccccc2n1CCCCOc1ccc(C)c(Cl)c1 | H37Rv-MA cydC::aph | turbidity / fluorescence |  | MIC90 |  | 0.18 µM
Cc1cc2nc3ccc(N=Nc4ccc(N(C)C)cc4)cc3n(-c3ccccc3)c-2cc1=N | ETA-R |  |  | MIC |  | 0.2 µg/mL
O=C(N=Nc1c(O)[nH]c2ccc(OC(F)(F)F)cc12)c1ccc(-n2cc(-c3ccccc3)nn2)cc1O | H37Rv | resazurin |  | MIC |  | >25 µg/mL

The first 9 rows once more:

compound | strain | read by | setting | read-out | tested at | value
COC1(OC)c2no[n+]([O-])c2C(OC)(OC)c2c1no[n+]2[O-] | H37Rv | BACTEC |  | inhibition | 12.5 µg/mL | 26%
COc1cccc(OC)c1Nc1nc(-c2ccc(F)cc2)cs1 | H37Rv | agar |  | MIC |  | >12.5 µg/mL
CC(C)N=c1cc2n(-c3ccc(Cl)cc3)c3ccccc3nc-2cc1Nc1ccc(Cl)cc1 | H37Rv-MA | turbidity / fluorescence |  | MIC90 |  | 0.46 µM
NNC(=O)c1cc(-c2ccc(-c3cccs3)s2)nc2ccccc12 | H37Rv | fluorescence |  | MIC |  | >6.25 µg/mL
C=CCS/C(N)=N/NC(=O)c1ccc(C)cc1 | H37Rv |  |  | MIC |  | >100 µg/mL
O=c1oc2ccccc2cc1-c1cs/c(=N/N=C/c2ccc(Cl)c(Cl)c2)n1C1CCCCC1 | H37Rv |  |  | MIC |  | >6.25 µg/mL
O=C(/C=C/c1ccccc1)c1ccc(F)cc1 | H37Rv | resazurin | 14 d | MIC |  | 32 µg/mL
Cc1ccc(/C=N/N=C(\N)c2ccncc2)cc1 | 1481 |  |  | MIC |  | 16 µg/mL
O=C(/C=C/c1ccccc1Cl)c1ccc(F)cc1 | H37Rv | MTT | 14 d | MIC |  | 32 µg/mL